Reference: PubChem BioAssay AID624099 (ICCB-Longwood, 2012)
Test: 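Human genes that papillomavirus E2 requires to repress the HPV18 LCR promoter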 (primary screen). System: human C33A cervical carcinoma cells (HPV-negative) stably expressing BPV1 E2 and an HPV18 LCR luciferase reporter. Reagents: siRNA pool against human genes, 40 nM. Time to read-out: 72 h. Measured: 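Per-well luciferase luminescence, z-scored on each plate against the plate mean and SD with control wells left out, then averaged across three replicate plates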. Direction: mean z-score and z-score: higher = stronger reporter signal, weaker E2 silencing. Rule for the call: 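Mean z ≥ 2 together with z ≥ 2 in two or more of the three replicates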.
This is an unselected part of about 21,000 reagents tested. Over the whole deposit, 497 (2.4%) got an active call. 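Higher z means weaker E2 silencing; only reporter increases were scored, and knock-downs that hurt cell survival may mask genuine repressor factors.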

NOL12 | mean z-score = -1.28; z-score, replicate A = -1.35; z-score, replicate B = -1.39; z-score, replicate C = -1.11; activity call = inactive
ATP2C2 | mean z-score = 1.88; z-score, replicate A = 1.83; z-score, replicate B = 2.18; z-score, replicate C = 1.64; activity call = inactive
ENPP4 | mean z-score = -0.19; z-score, replicate A = 0; z-score, replicate B = -0.37; z-score, replicate C = -0.2; activity call = inactive
GAGE7 | mean z-score = -1.26; z-score, replicate A = -1.25; z-score, replicate B = -1.36; z-score, replicate C = -1.17; activity call = inactive
UNC13A | mean z-score = -1.39; z-score, replicate A = -1.52; z-score, replicate B = -1.45; z-score, replicate C = -1.22; activity call = inactive
ZNF124 | mean z-score = 0.65; z-score, replicate A = 0.58; z-score, replicate B = 0.6; z-score, replicate C = 0.77; activity call = inactive
UXS1 | mean z-score = 1.08; z-score, replicate A = 1.26; z-score, replicate B = 0.64; z-score, replicate C = 1.34; activity call = inactive

2 of these entries in another layout:
target gene,mean z-score,"z-score, replicate A","z-score, replicate B","z-score, replicate C",activity call
GAGE7,-1.26,-1.25,-1.36,-1.17,inactive
UNC13A,-1.39,-1.52,-1.45,-1.22,inactive

The listing continues:
ZNF648 | mean z-score = 0.8; z-score, replicate A = 1.04; z-score, replicate B = 0.6; z-score, replicate C = 0.78; activity call = inactive
MPPED1 | mean z-score = -0.84; z-score, replicate A = -0.53; z-score, replicate B = -1.09; z-score, replicate C = -0.9; activity call = inactive
COX18 | mean z-score = -0.61; z-score, replicate A = -0.86; z-score, replicate B = -0.46; z-score, replicate C = -0.52; activity call = inactive
RPL34P34 | mean z-score = -3.84; z-score, replicate A = -3.32; z-score, replicate B = -4.05; z-score, replicate C = -4.14; activity call = inactive
PEX19 | mean z-score = -0.67; z-score, replicate A = -0.99; z-score, replicate B = -0.59; z-score, replicate C = -0.44; activity call = inactive
POLR1F | mean z-score = -0.94; z-score, replicate A = -0.81; z-score, replicate B = -0.93; z-score, replicate C = -1.06; activity call = inactive
CSTA | mean z-score = 2.21; z-score, replicate A = 2.29; z-score, replicate B = 2.11; z-score, replicate C = 2.23; activity call = active
